Assay results taken from patent publication US7491794B2, “Macrocyclic compounds as inhibitors of viral replication” (Intermune, Inc., priority 2003, dated 2009).

By UniProt entry, the sequences of proteins in these tests, tags left out. Residues count along the entry.
UniProt P27958, 1027-1657 limits assumed: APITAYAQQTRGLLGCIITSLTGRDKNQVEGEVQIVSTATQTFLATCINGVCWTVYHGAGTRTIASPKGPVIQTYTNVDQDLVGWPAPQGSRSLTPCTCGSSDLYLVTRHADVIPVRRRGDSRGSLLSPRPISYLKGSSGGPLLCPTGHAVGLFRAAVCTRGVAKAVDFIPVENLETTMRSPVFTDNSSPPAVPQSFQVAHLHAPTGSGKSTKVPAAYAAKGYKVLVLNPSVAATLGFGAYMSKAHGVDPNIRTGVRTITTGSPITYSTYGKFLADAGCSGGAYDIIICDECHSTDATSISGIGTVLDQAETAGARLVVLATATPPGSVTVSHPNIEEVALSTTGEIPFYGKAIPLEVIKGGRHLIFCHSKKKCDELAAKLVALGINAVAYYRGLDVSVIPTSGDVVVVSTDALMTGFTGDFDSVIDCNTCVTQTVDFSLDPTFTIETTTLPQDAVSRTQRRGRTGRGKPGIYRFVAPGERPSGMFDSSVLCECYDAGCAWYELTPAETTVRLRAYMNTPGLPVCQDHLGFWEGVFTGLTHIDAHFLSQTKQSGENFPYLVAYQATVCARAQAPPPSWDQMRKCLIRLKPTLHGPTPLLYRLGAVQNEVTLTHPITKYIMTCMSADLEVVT

Key:
NS3-NS4A protease = NS3-NS4A protease (Hepatitis C virus genotype 1a, UniProt P27958); experiment: NS3-NS4A protease assay (NS3 inhibition assay, RETS1 substrate), Section B; assay type: biochemical; conditions: read-out: NS3-NS4A IC50
[1] = system: HCV sub-genomic replicon, GS4.3; experiment: Quantitation by ELISA of NPTII in the HCV sub-genomic replicon, GS4.3, Section B; assay type: cell-based; conditions: read-out: Replicon EC50; GS4.3 cells, 72 h incubation
Description: Quantitation by ELISA of the Selectable Marker Protein, Neomycin Phosphotransferase II (NPTII) in the HCV Sub-Genomic Replicon, GS4.3
The HCV sub-genomic replicon (1377/NS3-3′, accession No. AJ242652), stably maintained in HuH-7 hepatoma cells, was created by Lohmann et al. Science 285: 110-113 (1999). The replicon-containing cell culture, designated GS4.3, was obtained from Dr. Christoph Seeger of the Institute for Cancer Research, Fox Chase Cancer Center, Philadelphia, Pa. […]
24 hours prior to the assay, GS4.3 cells were collected, counted, and plated in 96-well plates (Costar 3585) at 7500 cells/well in 100 μl standard maintenance medium (above) and incubated in the conditions above. […]
An NPTII ELISA kit was obtained from AGDIA, Inc. (Compound direct ELISA test system for Neomycin Phosphotransferase II, PSP 73000/4800). […] Plates were read at 450 nm on a Molecular Devices Versamax plate reader.
Inhibitor effect was expressed as a percentage of DMSO-treated control signal, and inhibition curves were calculated using a 4-parameter equation: y=A+((B−A)/(1+((C/x)^D))), where C is half-maximal activity or EC50.

In the case of CC(C)[Si](O[C@@H]1C[C@H]2C(=O)N[C@]3(C(=O)NS(=O)(=O)C4CC4)C[C@H]3/C=C\CCCCC[C@H](NC(=O)OC(C)(C)C)C(=O)N2C1)(C(C)C)C(C)C, the IC50 (NS3-NS4A protease) is reported as < 100 nM and the EC50 [1] is reported as < 1000 nM.
